Among the data in PMC6669600 (Viruses, 2019) are IC50 values, retold here.

This assay concerns HIV-1NL4-3 pseudovirus. Type of assay: cell-based. Particulars: HIV-1NL4-3(D36G) pseudovirus entry, TZM-bl cells; triplicate, repeated three times, mean ± SD; SD; read-out: Inhibition (IC50, nM) NL4-3 entry.

With `CC[C@H](C)[C@H](NC(=O)[C@H](CC(C)C)NC(=O)[C@H](CCC(=O)O)NC(=O)[C@H](CCC(=O)O)NC(=O)[C@@H](NC(=O)[C@H](CCCCN)NC(=O)[C@H](CCCCN)NC(=O)[C@@H](NC(=O)[C@H](Cc1ccc(O)cc1)NC(=O)[C@H](CCC(=O)O)NC(=O)[C@H](CCC(=O)O)NC(=O)[C@@H](NC(=O)[C@H](CCCCN)NC(=O)[C@H](CCCCN)NC(=O)[C@H](CC(=O)O)NC(=O)[C@H](Cc1c[nH]c2ccccc12)NC(=O)[C@H](CCC(=O)O)NC(=O)[C@H](CCC(=O)O)NC(=O)[C@H](Cc1c[nH]c2ccccc12)NC(C)=O)[C@@H](C)CC)[C@@H](C)O)[C@@H](C)CC)C(=O)N[C@@H](CCCCN)C(=O)N[C@@H](CCCCN)C(=O)N[C@@H](CO)C(=O)N[C@@H](CCC(=O)O)C(=O)N[C@@H](CCC(=O)O)C(=O)N[C@@H](CCC(N)=O)C(=O)N[C@@H](CCC(N)=O)C(=O)N[C@@H](CCCCN)C(=O)N[C@@H](CCCCN)C(=O)N[C@@H](CC(N)=O)C(=O)N[C@@H](CCC(=O)O)C(N)=O` [SC30EK], the IC50 was determined as 1 nM.

For the molecule `CC[C@H](C)[C@H](NC(=O)[C@H](CC(C)C)NC(=O)[C@H](CCC(=O)O)NC(=O)[C@H](CCC(=O)O)NC(=O)[C@@H](NC(=O)[C@H](CCCCN)NC(=O)[C@H](CCCCN)NC(=O)[C@@H](NC(=O)[C@H](Cc1ccc(O)cc1)NC(=O)[C@H](CCC(=O)O)NC(=O)[C@H](CCC(=O)O)NC(=O)[C@@H](NC(=O)[C@H](CCCCN)NC(=O)[C@H](CCCCN)NC(=O)[C@H](CC(=O)O)NC(=O)[C@H](Cc1c[nH]c2ccccc12)NC(=O)[C@H](CCC(=O)O)NC(=O)[C@H](CCC(=O)O)NC(=O)[C@H](Cc1c[nH]c2ccccc12)NC(=O)[C@@H](NC(=O)[C@H](CCSC)NC(C)=O)[C@@H](C)O)[C@@H](C)CC)[C@@H](C)O)[C@@H](C)CC)C(=O)N[C@@H](CCCCN)C(=O)N[C@@H](CCCCN)C(=O)N[C@@H](CO)C(=O)N[C@@H](CCC(=O)O)C(=O)N[C@@H](CCC(=O)O)C(=O)N[C@@H](CCC(N)=O)C(=O)N[C@@H](CCC(N)=O)C(=O)N[C@@H](CCCCN)C(N)=O` [MT-SC27EK], the IC50 was 1.1 ± 0.2 nM.

As to `CC[C@H](C)[C@H](NC(=O)[C@H](CC(C)C)NC(=O)[C@H](CCC(=O)O)NC(=O)[C@H](CCC(=O)O)NC(=O)[C@@H](NC(=O)[C@H](CCCCN)NC(=O)[C@H](CCCCN)NC(=O)[C@@H](NC(=O)[C@H](Cc1ccc(O)cc1)NC(=O)[C@H](CCC(=O)O)NC(=O)[C@H](CCC(=O)O)NC(=O)[C@@H](NC(=O)[C@H](CCCCN)NC(=O)[C@H](CCCCN)NC(=O)[C@H](CC(=O)O)NC(=O)[C@H](Cc1c[nH]c2ccccc12)NC(=O)[C@H](CCC(=O)O)NC(=O)[C@H](CCC(=O)O)NC(=O)[C@H](Cc1c[nH]c2ccccc12)NC(=O)[C@@H](NC(=O)[C@H](CCSC)NC(C)=O)[C@@H](C)O)[C@@H](C)CC)[C@@H](C)O)[C@@H](C)CC)C(=O)N[C@@H](CCCCN)C(N)=O` [MT-SC20EK], the IC50 was 3.7 ± 0.5 nM.

Turning to `CC[C@H](C)[C@H](NC(=O)[C@H](CC(C)C)NC(=O)[C@H](CCC(=O)O)NC(=O)[C@H](CCC(=O)O)NC(=O)[C@@H](NC(=O)[C@H](CCCCN)NC(=O)[C@H](CCCCN)NC(=O)[C@@H](NC(=O)[C@H](Cc1ccc(O)cc1)NC(=O)[C@H](CCC(=O)O)NC(=O)[C@H](CCC(=O)O)NC(=O)[C@@H](NC(=O)[C@H](CCCCN)NC(=O)[C@H](CCCCN)NC(=O)[C@H](CC(=O)O)NC(=O)[C@H](Cc1c[nH]c2ccccc12)NC(=O)[C@H](CCC(=O)O)NC(=O)[C@H](CCC(=O)O)NC(=O)[C@H](Cc1c[nH]c2ccccc12)NC(=O)[C@@H](NC(=O)[C@H](CCSC)NC(C)=O)[C@@H](C)O)[C@@H](C)CC)[C@@H](C)O)[C@@H](C)CC)C(N)=O` [MT-SC19EK], the IC50 came to 5 ± 0.9 nM.

`CC[C@H](C)[C@H](NC(=O)[C@H](CC(C)C)NC(=O)[C@H](CCC(=O)O)NC(=O)[C@H](CCC(=O)O)NC(=O)[C@@H](NC(=O)[C@H](CCCCN)NC(=O)[C@H](CCCCN)NC(=O)[C@@H](NC(=O)[C@H](Cc1ccc(O)cc1)NC(=O)[C@H](CCC(=O)O)NC(=O)[C@H](CCC(=O)O)NC(=O)[C@@H](NC(=O)[C@H](CCCCN)NC(=O)[C@H](CCCCN)NC(=O)[C@H](CC(=O)O)NC(=O)[C@H](Cc1c[nH]c2ccccc12)NC(=O)[C@H](CCC(=O)O)NC(=O)[C@H](CCC(=O)O)NC(=O)[C@H](Cc1c[nH]c2ccccc12)NC(=O)[C@@H](NC(=O)[C@H](CCSC)NC(C)=O)[C@@H](C)O)[C@@H](C)CC)[C@@H](C)O)[C@@H](C)CC)C(=O)N[C@@H](CCCCN)C(=O)N[C@@H](CCCCN)C(=O)N[C@@H](CO)C(=O)N[C@@H](CCC(=O)O)C(=O)N[C@@H](CCC(=O)O)C(=O)N[C@@H](CCC(N)=O)C(N)=O` [MT-SC25EK]: the IC50 is 1.9 ± 0.2 nM.

In the case of `CC[C@H](C)[C@H](NC(=O)[C@H](CC(C)C)NC(=O)[C@H](CCC(=O)O)NC(=O)[C@H](CCC(=O)O)NC(=O)[C@@H](NC(=O)[C@H](CCCCN)NC(=O)[C@H](CCCCN)NC(=O)[C@@H](NC(=O)[C@H](Cc1ccc(O)cc1)NC(=O)[C@H](CCC(=O)O)NC(=O)[C@H](CCC(=O)O)NC(=O)[C@@H](NC(=O)[C@H](CCCCN)NC(=O)[C@H](CCCCN)NC(=O)[C@H](CC(=O)O)NC(=O)[C@H](Cc1c[nH]c2ccccc12)NC(=O)[C@H](CCC(=O)O)NC(=O)[C@H](CCC(=O)O)NC(=O)[C@H](Cc1c[nH]c2ccccc12)NC(=O)[C@@H](NC(=O)[C@H](CCSC)NC(C)=O)[C@@H](C)O)[C@@H](C)CC)[C@@H](C)O)[C@@H](C)CC)C(=O)N[C@@H](CCCCN)C(=O)N[C@@H](CCCCN)C(=O)N[C@@H](CO)C(=O)N[C@@H](CCC(=O)O)C(=O)N[C@@H](CCC(=O)O)C(=O)N[C@@H](CCC(N)=O)C(=O)N[C@@H](CCC(N)=O)C(=O)N[C@@H](CCCCN)C(=O)N[C@@H](CCCCN)C(=O)N[C@@H](CC(N)=O)C(N)=O` [MT-SC29EK], the IC50 was determined as 0.9 ± 0.2 nM.

Take `CC[C@H](C)[C@H](NC(=O)[C@H](CC(C)C)NC(=O)[C@H](CCC(=O)O)NC(=O)[C@H](CCC(=O)O)NC(=O)[C@@H](NC(=O)[C@H](CCCCN)NC(=O)[C@H](CCCCN)NC(=O)[C@@H](NC(=O)[C@H](Cc1ccc(O)cc1)NC(=O)[C@H](CCC(=O)O)NC(=O)[C@H](CCC(=O)O)NC(=O)[C@@H](NC(=O)[C@H](CCCCN)NC(=O)[C@H](CCCCN)NC(=O)[C@H](CC(=O)O)NC(=O)[C@H](Cc1c[nH]c2ccccc12)NC(=O)[C@H](CCC(=O)O)NC(=O)[C@H](CCC(=O)O)NC(=O)[C@H](Cc1c[nH]c2ccccc12)NC(=O)[C@@H](NC(=O)[C@H](CCSC)NC(C)=O)[C@@H](C)O)[C@@H](C)CC)[C@@H](C)O)[C@@H](C)CC)C(=O)N[C@@H](CCCCN)C(=O)N[C@@H](CCCCN)C(=O)N[C@@H](CO)C(=O)N[C@@H](CCC(=O)O)C(=O)N[C@@H](CCC(=O)O)C(=O)N[C@@H](CCC(N)=O)C(=O)N[C@@H](CCC(N)=O)C(=O)N[C@@H](CCCCN)C(=O)N[C@@H](CCCCN)C(=O)N[C@@H](CC(N)=O)C(=O)N[C@@H](CCC(=O)O)C(=O)N[C@@H](CCCCN)C(=O)N[C@@H](CCC(=O)O)C(N)=O` [MT-SC32EK]: the IC50 is 1.3 ± 0.1 nM.
